Compound potency records, mixed from different reports. Data source: NIAID ChemDB in PubChem.

All rows: growth or infection tests; species: Mycobacterium tuberculosis

Inhibition is in % at the dose shown (toxicity tests: loss of growth or viability). Blank or dashed fields: not listed here. MIC50, MIC90 and the like: level of inhibition, or share of isolates inhibited. Lines come from different laboratories, so protocols vary. MIC bound comes from a single tested concentration.

SMILES	method	tested at	measure	changes	cell line	strain or isolate	result
O=c1oc2c([N+](=O)[O-])cccc2cc1-c1cn2ccccc2n1	BACTEC	6.25 µg/mL	inhibition			H37Rv	21%
Cc1ccc(Nc2cc(S(=O)(=O)[O-])c3c4c(cc(=O)n3C)-c3ccccc3C(=O)c24)cc1.[Na+]			MIC			H37Rv	100 µg/mL
C[C@]1(COc2ccc(N3CCC(Oc4ccc(OC(F)(F)F)cc4)CC3)cc2)Cn2cc([N+](=O)[O-])nc2O1			MIC90			56 strains (EMB-susceptible)	0.012 µg/mL
O=C1c2cc(Cl)ccc2-n2c1nc1ccncc1c2=O			MIC			H37Rv	0.03 µg/mL
OC(/C=C/c1ccccc1)C(O)/C=C/c1ccccc1			MIC			H37Rv	>100 µg/mL
O=S(=O)(Cc1cn(-c2ccc(C(F)(F)F)cc2)nn1)C1c2ccccc2-c2ccccc21	broth dilution		MIC99			H37Rv	110 µM
Cc1cc(C)c(C(=Nc2ccccc2)C(=Nc2ccccc2)c2c(C)cc(C)cc2C)c(C)c1			MIC			H37Rv	>100 µg/mL
COc1cc(-n2cc(CSC3c4ccccc4-c4ccccc43)nn2)cc(OC)c1OC	broth dilution		MIC99			Specimen 192	56.11 µM
O=C(O)CCc1nc2ccccc2[nH]1			MIC			H37Rv	>100 µg/mL
COC(=O)C1=CO[C@@H](C)[C@@H]2CN3CCc4c([nH]c5ccc(OC)cc45)[C@@H]3C[C@H]12	BACTEC	12.8 µg/mL	inhibition			H37Rv	7%
COc1cc(Cc2cnc(N)nc2N)ccc1OCC1CCCCC1			MIC			H37Rv	>93.5 µM
CCCCCCCCc1ccc2c(c1)C(=O)c1nc3ccncc3c(=O)n1-2			MIC			TN1040RFLP:N (DRUG sensitive)	≤0.015 µg/mL
Cc1ccn2cc(-c3cc4cc(Br)ccc4oc3=O)nc2c1	BACTEC		MIC			H37Rv	>6.25 µg/mL
O=S(=O)(Cc1cn(-c2ccccc2)nn1)C1c2ccccc2-c2ccccc21	broth dilution		MIC99			H37Rv	>258 µM
CN(C)CCOC(c1ccccc1)c1ccccc1			MIC			H37Rv	100 µg/mL
Nc1ncc(Cc2ccc(OCc3ccccc3)cc2)c(N)n1			MIC			H37Rv	26.1 µM
Cc1ccn2cc(-c3cc4cc(Cl)ccc4oc3=O)nc2c1	BACTEC	6.25 µg/mL	inhibition			H37Rv	9%
N#Cc1ccn2c(-c3ccccc3)c(-c3ccccc3)c(C(O)c3ccccc3)c2c1			MIC		VERO	H37Rv	6.25 µg/mL
CS(=O)(=O)Nc1ccc(C(=O)O)cc1			MIC			H37Rv	>100 µg/mL
COc1ccc(-n2cc(CS(=O)(=O)C3c4ccccc4-c4ccccc43)nn2)cc1	broth dilution		MIC99			Specimen 192	120 µM
Cn1cc(C(=O)O)c(=O)c2cc([N+](=O)[O-])c3cccnc3c21			MIC90	gyrA mutation A90V		BCG	1.4 µM
O=c1oc2c(Cl)cc(Cl)cc2cc1-c1cn2ccccc2n1	BACTEC	6.25 µg/mL	inhibition			H37Rv	10%
CCOc1ccc(Cc2cnc(N)nc2N)cc1OC			MIC			H37Rv	>117 µM
COc1cccc2c(=O)n3c(nc12)C(=O)c1cc(C(=O)O)ccc1-3			MIC			H37Rv	>8 µg/mL
CCCCCCCCC[N+]12CC[N+](CCCCCCCCC)(CC1)CC2.[Br-].[Br-]	BACTEC		MIC bound			H37Rv	>12.5 µg/mL
CC(=O)C(C(c1ccccc1)N1CCOCC1)N1CCOCC1			MIC			H37Rv	>100 µg/mL
C=C(CC[C@@H](C(=O)O)[C@H]1CC[C@@]2(C)C3=C(CC[C@]12C)[C@@]1(C)CC[C@H](O)C(C)(C)[C@@H]1CC3)C(C)C	BACTEC		MIC bound			H37Rv	>12.8 µg/mL
COc1cc(O)c([N+](=O)[O-])cc1S(=O)(=O)O			MIC			H37Rv	>100 µg/mL
O=c1oc2ccc(-c3ccccc3)cc2c(O)c1N=Nc1c(Cl)cccc1Cl	resazurin		MIC			H37Rv	<6.25 µg/mL
O=[N+]([O-])c1cc(Sc2nc3ccc(I)cc3[nH]2)cc([N+](=O)[O-])c1			MIC			My 331/88	4 µM
COc1cc(NCC(O)CO)c2ncccc2c1.Cl			MIC			H37Rv	>100 µg/mL
NNC(=O)C1(N)CCCC1	BACTEC	12.5 µg/mL	inhibition			H37Rv	4%
FC(F)(F)C(F)(F)C(F)(F)c1nc2cc(Cl)c(Cl)cc2[nH]1			MIC			My 331/88	8 µM
CC(=O)OCCCCCCc1ccc2nc3n(c(=O)c2c1)-c1ccc(Cl)cc1C3=O			MIC			H37Rv	0.5 µg/mL
Cc1cc(C)c(N)c(S(=O)(=O)O)c1			MIC			H37Rv	>100 µg/mL
CCC1OC(=O)CC(O)C(C)C(OC2OC(C)CC(N(C)C)C2O)C(CC=O)CC(C)C(=O)/C=C\C2(C)OC2C1C	BACTEC		MIC			H37Rv	≥12.5 µg/mL
O=c1oc2ccc3ccccc3c2c(O)c1N=Nc1ccc(Cl)cc1	resazurin		MIC			H37Rv	<6.25 µg/mL
O=C(O)/C=C/c1ccc(-c2cc(C(F)(F)F)cc(C(F)(F)F)c2)o1	BACTEC		MIC bound			H37Rv	>12.5 µg/mL
CCCCCCCCCCC(C(=O)OCC)C(=O)OCC			MIC			H37Rv	>100 µg/mL
COc1cc(Cc2cnc(N)nc2N)ccc1OCc1ccccc1			MIC			H37Rv	>95 µM
NCCN1CCOCC1			MIC			H37Rv	>100 µg/mL
O=[N+]([O-])c1ccc(Sc2nc3c(Br)cc(Br)cc3[nH]2)c([N+](=O)[O-])c1			MIC			My 331/88	16 µM
Nc1cc(C(=O)c2ccccc2C(=O)O)ccc1NS(=O)(=O)c1ccccc1			MIC			H37Rv	100 µg/mL
O=C1C2=Cc3ccccc3OC2(O)Oc2cc(O)cc(O)c21	BACTEC	12.5 µg/mL	inhibition			H37Rv	0%
CCC(O)c1c(-c2ccccc2)c(-c2ccccc2)n2ccc(C#N)cc12		6.25 µg/mL	inhibition			H37Rv	96%
CO[C@@]12[C@H](COC(N)=O)C3=C(C(=O)C(C)=C(N)C3=O)N1C[C@H]1[C@@H]2N1C(=O)/C=C/c1ccccc1	BACTEC		MIC			H37Rv	<0.1 µg/mL
CCCCC(=O)c1ccn2c(-c3ccccc3)c(-c3ccccc3)c(C(C[N+](=O)[O-])c3ccccc3)c2c1		6.25 µg/mL	inhibition			H37Rv	16%
CCCOc1ccc(Cc2cnc(N)nc2N)cc1OC			MIC			H37Rv	>111 µM
Nc1ccccc1OCCOCCOCCO			MIC			H37Rv	>100 µg/mL
O=[N+]([O-])c1cc(F)ccc1-n1cc(CSC2c3ccccc3-c3ccccc32)nn1	broth dilution		MIC99			Specimen 192	>239 µM
COc1c2occc2c([N+](=O)[O-])c2ccc(=O)oc12	resazurin	6.25 µg/mL	inhibition			H37Rv	32%
Cc1ccn2cc(-c3cc4ccccc4oc3=O)nc2c1	BACTEC		MIC			H37Rv	>6.25 µg/mL
CC1=NN(C(=O)CC(=O)Nc2ccccc2F)C(=O)C1N=Nc1ccccc1[N+](=O)[O-]	BACTEC		MIC bound			H37Rv	>12.5 µg/mL
CC(C)N=c1cc2n(-c3ccc(Cl)cc3)c3ccccc3nc-2cc1Nc1ccc(Cl)cc1	fluorescence		MIC90			H37Rv	0.25 µg/mL
Cc1nccc2c(C)c3c(cc12)c1ccccc1n3CCC1CO1	resazurin		MIC			H37Rv	1.56 µg/mL
Cc1cccc(N=Nc2c(O)c3cc(-c4ccccc4)ccc3oc2=O)c1	resazurin	6.25 µg/mL	inhibition			H37Rv	23%
O=C(CCCCCC(=O)c1ccccc1)c1ccccc1			MIC			H37Rv	>100 µg/mL
CC1=NN(C(=O)CC(=O)Nc2ccc(C(=O)O)cc2)C(=O)C1N=Nc1ccc(S(N)(=O)=O)cc1	BACTEC		MIC bound			H37Rv	>12.8 µg/mL
Clc1cc(Cl)cc(-n2cc(CSC3c4ccccc4-c4ccccc43)nn2)c1	broth dilution		MIC99			Specimen 192	118 µM
O=[N+]([O-])c1cc(Sc2nc3c(Br)c(Br)c(Br)c(Br)c3[nH]2)cc([N+](=O)[O-])c1			MIC			My 331/88	8 µM
O=c1oc2ccc3ccccc3c2c(O)c1N=Nc1ccc([N+](=O)[O-])cc1	resazurin	6.25 µg/mL	inhibition			H37Rv	94%
O=[N+]([O-])c1ccc(Sc2nc3c(Cl)cc(Cl)cc3[nH]2)cc1			MIC			My 331/88	2 µM
Cc1ccc(-c2c(C(O)c3ccccc3)c3cc(C#N)ccn3c2-c2ccc(C)cc2)cc1			MIC		VERO	H37Rv	3.13 µg/mL
O=C(O)c1ccccc1C(=O)c1cc([N+](=O)[O-])c(Cl)c([N+](=O)[O-])c1			MIC			H37Rv	>100 µg/mL
CCOC(=O)NC(=Nc1cccc(C(=O)c2ccc3nc(NC(=O)OCC)[nH]c3c2)c1)NC(=O)OCC	BACTEC	0.5 µM	inhibition			H37Rv	0%
Cc1ccn2cc(-c3cc4cc(Br)cc(Br)c4oc3=O)nc2c1	BACTEC	6.25 µg/mL	inhibition			H37Rv	17%
CCOC(=O)c1cc(C(=O)c2ccc(F)cc2)n2ccc(C(=O)OC(C)C)cc12	resazurin		MIC			H37Rv	1 µg/mL
CCOC(=O)c1c(C)[nH]c(C)c(C(=O)O)c1=O			MIC			H37Rv	>100 µg/mL
O=c1[nH]c2ccc(Cl)cc2c(O)c1N=Nc1ccccc1[N+](=O)[O-]	resazurin	6.25 µg/mL	inhibition			H37Rv	64%
NC(=O)Nc1ccccc1O			MIC			H37Rv	100 µg/mL
CCCCCC(O)c1c(-c2ccccc2)c(-c2ccccc2)n2ccc(C#N)cc12			MIC			H37Rv	6.25 µg/mL
COc1cccc2cc(-c3cn4cc(Br)ccc4n3)c(=O)oc12	BACTEC	6.25 µg/mL	inhibition			H37Rv	0%
C[C@@H]1CN(c2c(F)c(N)c3c(=O)c(C(=O)O)cn(C4CC4)c3c2F)C[C@H](C)N1			MIC90			18 strains	0.5 µg/mL
C[C@@H]1C(=O)OCC2=C3C[C@@H](CC[C@@]3(C)C=CC2=O)[C@H](C)C(=O)OCC2=C3C[C@H]1CC[C@@]3(C)C=CC2=O	BACTEC	12.5 µg/mL	inhibition			H37Rv	18%
O=C1c2cc(F)ccc2-n2c1nc1ccc(F)cc1c2=O			MIC			H37Rv	0.13 µg/mL
N#Cc1ccn2c(-c3ccc(F)cc3)c(-c3ccc(F)cc3)c(C(O)c3ccccc3)c2c1		6.25 µg/mL	inhibition			H37Rv	35%
CSC(=S)N(C)NC(=O)c1cccc(C(=O)NN(C)C(=S)SC)n1	resazurin		MIC bound			H37Rv	>6.25 µg/mL
FC(F)(F)c1nc2cc(Cl)c(Cl)cc2[nH]1			MIC			My 331/88	8 µM
CC(C)C(O)(C(=O)OCC1=CCN2CCC(O)C12)C(C)O	BACTEC		MIC			H37Rv	≥12.8 µg/mL
CCc1ccc(-n2cc(CSC3c4ccccc4-c4ccccc43)nn2)cc1	broth dilution		MIC99			Specimen 192	261 µM
CC(C)(C)C(O)c1c(-c2ccccc2)c(-c2ccccc2)n2ccc(C#N)cc12		6.25 µg/mL	inhibition		VERO	H37Rv	94%
O=C1c2cc(I)ccc2-n2c1nc1cc(Cl)cc(Cl)c1c2=O			MIC			H37Rv	0.13 µg/mL
CCOC(=O)c1cn(C)c2c(cc([N+](=O)[O-])c3cccnc32)c1=O			MIC90	gyrA mutation D94G gyrB mutation D500N		H37Rv	>50 µM
N=Nc1c2ccccc2c2nc3c(N)[nH]nc(N)c3nc12	resazurin	6.25 µg/mL	inhibition			H37Rv	44%
O=c1cc[nH]c2ccccc12			MIC			H37Rv	>100 µg/mL
CCN(CC)c1ccc2nc3c4ccccc4c(=NC(=O)c4ccccc4-c4c5ccc(N(CC)CC)cc5[o+]c5cc(N(CC)CC)ccc45)cc-3oc2c1.[Cl-]			MIC			EMB-R	0.8 µg/mL
O=C1OCCN1c1ccccc1Cl			MIC			H37Rv	>100 µg/mL
CC1=C(CCC(C)CO)OC2CC3C4CCC5CC(O)CCC5(C)C4CCC3(C)C12	BACTEC	12.5 µg/mL	inhibition			H37Rv	-8%
O=c1oc2c(Br)cc(Br)cc2cc1-c1cn2ccccc2n1	BACTEC	6.25 µg/mL	inhibition			H37Rv	7%
CCOC(=O)C1NC(C(=O)OCC)C(=O)C1=O	resazurin	6.25 µg/mL	inhibition			H37Rv	1%
O=C1c2c(Cl)cccc2-n2c1nc1ncccc1c2=O			MIC			H37Rv	0.5 µg/mL

Repeating the first 9 entries:

SMILES | method | tested at | measure | changes | cell line | strain or isolate | result
O=c1oc2c([N+](=O)[O-])cccc2cc1-c1cn2ccccc2n1 | BACTEC | 6.25 µg/mL | inhibition |  |  | H37Rv | 21%
Cc1ccc(Nc2cc(S(=O)(=O)[O-])c3c4c(cc(=O)n3C)-c3ccccc3C(=O)c24)cc1.[Na+] |  |  | MIC |  |  | H37Rv | 100 µg/mL
C[C@]1(COc2ccc(N3CCC(Oc4ccc(OC(F)(F)F)cc4)CC3)cc2)Cn2cc([N+](=O)[O-])nc2O1 |  |  | MIC90 |  |  | 56 strains (EMB-susceptible) | 0.012 µg/mL
O=C1c2cc(Cl)ccc2-n2c1nc1ccncc1c2=O |  |  | MIC |  |  | H37Rv | 0.03 µg/mL
OC(/C=C/c1ccccc1)C(O)/C=C/c1ccccc1 |  |  | MIC |  |  | H37Rv | >100 µg/mL
O=S(=O)(Cc1cn(-c2ccc(C(F)(F)F)cc2)nn1)C1c2ccccc2-c2ccccc21 | broth dilution |  | MIC99 |  |  | H37Rv | 110 µM
Cc1cc(C)c(C(=Nc2ccccc2)C(=Nc2ccccc2)c2c(C)cc(C)cc2C)c(C)c1 |  |  | MIC |  |  | H37Rv | >100 µg/mL
COc1cc(-n2cc(CSC3c4ccccc4-c4ccccc43)nn2)cc(OC)c1OC | broth dilution |  | MIC99 |  |  | Specimen 192 | 56.11 µM
O=C(O)CCc1nc2ccccc2[nH]1 |  |  | MIC |  |  | H37Rv | >100 µg/mL